To fix the notation:
B1: sdAb H9-A1 (VHH)
VHH: EVQLQASGGGLVQPGGSLRLSCAASGSAVSIGFMAWYRQAPGKQRELVARISSSGLPDYADTVKGRFTISRDNTRKTVSLQMNSLNPDDTAVYYCNARLYDGSSAWGQGTQVTVSS
notes: source: E. coli Rosetta (DE3), periplasm, purified (IMAC, size exclusion chromatography)
B2: sdAb E9 (VHH)
VHH: EVQLQASGGGLVQAGGSLRLSCAASGRDFSDYAMAWFRQAPGKEREFVGTISWYTNTNYADSVKGRFSISRDNAKNTVYLQMSSLKPEDTAVYYCAAAPARYYNPYKRESEYGYWGQGTQVTVSS
notes: as for B1
B3: sdAb H12 (VHH)
VHH: B2 VHH with Q13L, A14T, D28N, D31N, D61N, R101M, K107T
notes: as for B1
B4: sdAb A10 (VHH)
VHH: EVQLQASGGGLVRAGGTLRLTCDATTPTFGSYAMGWFRQAPGKEREFVSAISWSGGDTYADSVKGRFTISRDNTRNRVYLQMNDLEPDDTAIYTCARTTARYYISKDAKDYDYWGQGTQVTVSS
notes: as for B1
B5: sdAb D9 (VHH)
VHH: EVQLQASGGGLAQAGDSLRLSCAASIRTFGSYAMGWFRQAPGKEREFVAAISWSGGDTYADSAKGRFTISRDNAKNMMYLQMNSLAPEDTAVYFCAIVEAKYYISKDARDYGYWGQGTQVFVSS
notes: as for B1
B6: sdAb H9-D7 (VHH)
VHH: DVQLQASGGGLVQVGGSLRLSCAASGSTFRIGYMSWHRQAPGKSRELVARISSGGTTDYLDSVKDRFTISRDNTKNTVYLQMNSLEPEDTAVYYCNVVDYRANEYWGQGTQVAVSS
notes: as for B1
B7: sdAb H9-B11 (VHH)
VHH: B6 VHH with S35G, H37Y, S44P, S62F, T74A, N83S, E86K, D99N, A113T
notes: source: E. coli, periplasm, purified (IMAC, size exclusion chromatography)
B8: sdAb H9-H11 (VHH)
VHH: DVQLQASGGGLVQPGGSLRLSCAASESAVRIGFMGWHRQAPGNQRERVAQISSTGLPTYADAVKGRFTISRDNTKNTVYLQMNSLNADDTAVYFCNARLYDGTSVWGQGTQVTVSS
notes: as for B7
B9: sdAb S222-A2 (VHH)
VHH: B8 VHH with Q13E, E26G, R30S, N43K, L56I, T58N, A62T, V78M, V105A
notes: as for B7
B10: sdAb F1 (VHH)
VHH: DVQLQASGGGLVQAGGSLRLTCAASLHTFGSYAMGWFRQAPGKEREFVAAISWSGGDTYSDSVKGRFTISRDNAKNTVYLQMNSLEPEDTAVYSCAAVEARYYISTDAKDYGYWGQGTQVTVSS
notes: as for B1
B11: sdAb E2 (VHH)
VHH: B10 VHH with D1E, L26G, H27R, S60A, E86A, E99G, T106K
notes: as for B1
B12: sdAb B12 (VHH)
VHH: EVQLQASGGGLVQAGGPLRLTCAVSGPTFGSYALGWFRQAPGKEREFVAAVSWSGGDTYADSVKGRFIISRDNAKNTVYLQMNNLEPEDTAVYSCARMQDRYYISKDAKDYGYWGQGTQVTVSS
notes: as for B1
B13: sdAb B1 (VHH)
VHH: B12 VHH with P17S, S62T, V63A, T121I
notes: as for B1
B14: sdAb H9 (VHH)
VHH: B12 VHH with P17S, G117E
notes: as for B1

Positions count from the first letter of the chain named.

One assay has as its target T1, SEB peptide fragment 9 (VKSIDQFLYFDLIYSI) (Staphylococcus aureus (synthetic …, biotin (position not given))).
T1 chain: VKSIDQFLYFDLIYSI
The assay is described as follows: SPR. The following applies: both partners purified.
For the molecule B1, the binding result is given as “no binding”.
Turning to B2, the binding result is listed as “binds”.
In the case of B3, the binding result is given as “binds”.
In the case of B4, the binding result is “binds”.
In the case of B5, the binding result is given as “binds”.
Turning to B6, the binding result was “no binding”.
Regarding B7, the binding result is “no binding”.
On the same count and under the same terms, as for B8, the entry is “no binding”.
For B9, the binding result is on record as “no binding”.
In the case of B10, the binding result is listed as “binds”.
For the molecule B11, the binding result was “binds”.
With B12, the binding result was “binds”.
On to B13, for which the binding result is given as “binds”.
The same measure, in the same setting: the same measure for B14: “binds”.

The target of another assay is T2, SEB peptide 4 (VLAESQPDPKPDELHK) (Staphylococcus aureus (synthetic …, biotin (position not given))).
T2 chain: VLAESQPDPKPDELHK
Briefly: SPR. Conditions: both partners purified.
For the molecule B1, the binding result was “no binding”.
Take B6: the binding result is on record as “no binding”.
As for B7, the binding result was “no binding”.
For B8, the binding result is recorded as “no binding”.
For the molecule B9, the binding result is “no binding”.
